The data set deals with PRV (Pseudorabies virus).

As for `CC(C)=CC[C@]12O[C@@]1(C/C=C(\C)CC/C=C(\C)C(=O)O)C(=O)c1cc(O)cc(O)c1C2=O` [Compound 6, A80915G-8″-acid], the “TI (therapeutic index = CC50/IC50)” value is below 2.0.

The values are drawn from paper PMC9861092, “Napyradiomycin A4 and Its Relate Compounds, a New Anti-PRV Agent and Their Antibacterial Activities, from Streptomyces kebangsaanensis WS-68302” (Molecules, 2023).
